# Assay results: patent US20150023988A1
# Values joined by “and” are separate entries in the source; they are usually repeats but may differ in a detail not shown here. Equal entries are not always repeated.
# Assays:
# Experiment in all cases: cell-based or functional assay
# [1] = biological target: human voltage-gated sodium channel Nav1.4 (human), P35499
# [2] = biological target: human voltage-gated sodium channel Nav1.5 (human), Q14524
# [3] = biological target: human voltage-gated sodium channel Nav1.7 (human), Q15858
Binder,PX hNav1.4 Tonic IC50 [1] [nM],PX hNav1.5 Tonic IC50 [2],PX hNav1.7 Tonic IC50 [3],Nav1.4/Nav1.7 [1] [fold],IC50 (IonWorks Quattro) [1] [nM],IC50 (IonWorks Quattro) [2] [nM],Nav1.4/Nav1.7 (ratio of IC50s) [1]
YCQKWLWTCDSKRACCKGLECKLWCRKIW (modifications not checked) [[Nle6; Lys(Pra-NPEG3)17; Glu20; Trp29]JzTx-V(1-29)],453,580 nM,570 nM,,,,
ACQKWLWTCDSKRACCEGLECKLWCRKII (modifications not checked) [[Atz(NPEG10)1; Nle6; Glu20]JzTx-V(1-29)],549,,6.48 nM,85,,,
"AYCQKWLWTCDSKRKCCEGLRCKLWCRKII (modifications not checked) [CyA-[Nle6, Lys(Atz(NPEG10)-NPEG3)14]JzTx-V(1-29)]",16.6,,6.37 nM,3,,,
YCQKWLWTCDSKRACCKGLECKLWCRKIW (modifications not checked) [[Nle6; AzK17; Glu20; Trp29]JzTx-V(1-29)],360,750 nM,9.08 nM,,,,
"AYCQKWLWTCDSKRACCGGLECKLWCRKII (modifications not checked) [CyA-[Nle6, Pra17, Glu20]JzTx-V(1-29)]",278,,2.84 nM,,,,
YCQKWLWTCDSKRACCKGLECKLWCRKIW (modifications not checked) [[Nle6; Lys(Pra-NPEG11)17; Glu20; Trp29]JzTx-V(1-29)],1630,3120 nM,900 nM,,,,
"AYCQKWLWTCDSKRACCGGLECKLWCRKYI (modifications not checked) [CyA-[Nle6, Pra17, Glu20, Tyr28]JzTx-V(1-29)]",1760,,87.1 nM,,,,
KCQKWLWTCDSKRACCEGLECKLWCRKIW (modifications not checked) [[AzK1; Nle6; Glu20; Trp29]JzTx-V(1-29)],1740,2560 nM,3.86 nM,,,,
"VYCQKWLWTCDSKRKCCEGLRCKLWCRKII (modifications not checked) [Nva-[Nle6, Lys(Pra-NPEG3)14]JzTx-V(1-29)]",16.5,,1.43 nM and 1.56 nM,,,,
YCQKWLWTCDSKRACCEGLRCKAWCRKII (modifications not checked) [[Nle6;Atz(NPEG10)23]JzTx-V(1-29)],,,,,> 7000,> 7000,
YCQKWLWTCDSKRKCCEGLECKLWCRKIW (modifications not checked) [[Nle6; Lys(Pra-NPEG3)14; Glu20; Trp29]JzTx-V(1-29)],1130,3010 nM,30 nM,,,,
"AYCQKWLWTCDSKRKCCEGLECKLWCRKYI (modifications not checked) [CyA-[Nle6, Lys(Pra)14, Glu20, Tyr28]JzTx-V(1-29)]",964,,0.05 nM,,,,
"VYCQKWLWTCDSKRKCCEGLRCKLWCRKEI (modifications not checked) [Nva-[Leu6, Lys(Pra-NPEG3)14; Glu28]JzTx-V(1-29)]",451,3960 nM,4.62 nM,,,,
ACQKWLWTCDSKRACCEGLECKLWCRKIW (modifications not checked) [[Aha1; Nle6; Glu20; Trp29]JzTx-V(1-29)],767,2030 nM,3.21 nM,,,,
YCQKFMWTCDSKRACCEGLECKLWCRKYI (modifications not checked) [[Phe5; Glu20; Tyr28]JzTx-V(1-29)],,> 1000 nM,4.6 nM,,,,
YCQKWLWTCDSKRACCEGLECKLWCRKII (modifications not checked) [[Nle6;Glu20]JzTx-V(1-29)],,,,,> 5000,> 5000,
"VYCQKWLWTCDSKRKCCEGLRCKLWCRKII (modifications not checked) [Nva-[Leu6, Lys(Pra)14]JzTx-V]",16.1,,2.38 nM and 1.57 nM,,,,

Binder,PX hNav1.4 Tonic IC50 [1] [nM],PX hNav1.5 Tonic IC50 [2],PX hNav1.7 Tonic IC50 [3],Nav1.4/Nav1.7 [1] [fold],IC50 (IonWorks Quattro) [1] [nM],IC50 (IonWorks Quattro) [2] [nM],Nav1.4/Nav1.7 (ratio of IC50s) [1]
GYCQKWVWTCDSKRACCEGLECKLWCRKIW (modifications not checked) [Pra-[Nva6; Glu20; Trp29]JzTx-V(1-29)],968,5300 nM,0.818 nM,,,,
GYCQKWLWTCDSKRACCEGLECKLWCRKIW (modifications not checked) [Pra-[Leu6; Glu20; Trp29]JzTx-V(1-29)],1180,1330 nM,0.571 nM,,,,
GYCQKWFWTCDSKRACCEGLECKLWCRKIW (modifications not checked) [Pra-[Phe6; Glu20; Trp29]JzTx-V(1-29)],661,780 nM,15 nM,,,,
"VYCQKWLWTCDSKRKCCEGLRCKLWCRKII (modifications not checked) [Nva-[Nle6, Lys(Pra)14]JzTx-V(1-29)]",20.5,,1.62 nM and 1.63 nM,,,,
"AYCQKWLWTCDSKRKCCEGLRCKLWCRKEI (modifications not checked) [CyA-[Nle6, Lys(Pra)14, Glu28]JzTx-V(1-29)]",,920 nM and 1450 nM and 2160 nM,,,,,
YCQKWLWTCDSKRKCCEGLECKLWCRKIW (modifications not checked) [[Nle6; AzK14; Glu20; Trp29]JzTx-V(1-29)],635,1970 nM,1.15 nM,,,,
YCQKWLWTCDSKRKCCEGLECKLWCRKIW (modifications not checked) [[Nle6; Lys(Pra-NPEG11)14; Glu20; Trp29]JzTx-V(1-29)],2730,6100 nM,520 nM,,,,
GYCQKWLWTCDSKRACCEGLECKLWCRKII (modifications not checked) [Pra-[Nle6; Glu20]JzTx-V(1-29)],804,1200 nM,1.87 nM,,,,
YCQKWLWTCDGKRACCEGLRCKLWCRKEI (modifications not checked) [[Nle6; Pra11; Glu28]JzTx-V(1-29)],222,5980 nM,0.763 nM,,,,
YCQKFMWTCDSKRACCEGLECKLWCRKYI (modifications not checked) [[pI-Phe5;Glu20;Tyr28]JzTx-V(1-29)],,,,,,> 5000,30
"AYCQKWLWTCDSKRACCGGLRCKLWCRKEI (modifications not checked) [CyA-[Nle6, Pra17, Glu28]JzTx-V(1-29)]",,710 nM,,,,,
YCQKWLWTCDSKRACCGGLRCKLWCRKEI (modifications not checked) [[Nle6; Pra17; Glu28]JzTx-V(1-29)],125,3080 nM,3.63 nM,,,,
YCQKWLWTCDSKRGCCEGLRCKLWCRKEI (modifications not checked) [[Nle6; Pra14; Glu28]JzTx-V(1-29)],105,3510 nM,0.493 nM,,,,
"AYCQKWLWTCDSKRKCCEGLRCKLWCRKEI (modifications not checked) [CyA-[Leu6, Lys(Pra)14, Glu28]JzTx-V(1-29)]",166,1550 nM,1.5 nM,,,,
AYCQKWLWTCDSKRACCEGLECKLWCRKIW (modifications not checked) [Aha-[Nle6; Glu20; Trp29]JzTx-V(1-29)],1200,3770 nM,1.12 nM,,,,
YCQKWLWTCDSKRACCAGLRCKLWCRKEI (modifications not checked) [[Nle6; Atz(NPEG10)17; Glu28]JzTx-V(1-29)],65.9,,5.88 nM,11,,,
YCQKFMWTCDSKRACCEGLECKLWCRKYI (modifications not checked) [[pI-Phe5; Glu20; Tyr28]JzTx-V(1-29)],172,> 1000 nM,2.2 nM,,,,
